Target: Paeniclostridium sordellii hemorrhagic toxin (TcsH), recombinant, His-tagged (Paeniclostridium sordellii, UniProt M9ZTT7 1-2618)

B1: Fc-tagged TMPRSS2^106-492/R255Q (ectodomain of human TMPRSS2 with R255Q) (Fc fusion)
chain: WKFMGSKCSNSGIECDSSGTCINPSNWCDGVSHCPGGEDENRCVRLYGPNFILQVYSSQRKSWHPVCQDDWNENYGRAACRDMGYKNNFYSSQGIVDDSGSTSFMKLNTSAGNVDIYKKLYHSDACSSKAVVSLRCIACGVNLNSSRQSQIVGGESALPGAWPWQVSLHVQNVHVCGGSIITPEWIVTAAHCVEKPLNNPWHWTAFAGILRQSFMFYGAGYQVEKVISHPNYDSKTKNNDIALMKLQKPLTFNDLVKPVCLPNPGMMLQPEQLCWISGWGATEEKGKTSEVLNAAKVLLIETQRCNSRYVYDNLITPAMICAGFLQGNVDSCQGDSGGPLVTSKNNIWWLIGDTSWGSGCAKAYRPGVYGNVMVFTDWIYRQMRADG
- Kd: ~130 pM

From publication PMC9321280 (Nature Communications, 2022)
